Results deposited as PubChem BioAssay AID504761 (Drosophila RNAi Screening Center, 2011)
Test: 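Genome-wide fly cell screen for genes dengue virus requires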 (primary screen). Cells: D.Mel-2 cells from Drosophila. Reagents: long dsRNA against Drosophila genes. Conditions: infection with dengue virus type 2; dose and infection time not stated. Measurement: 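Per well on two replicate plates, imaging gave the percent of cells positive for viral envelope protein, ranked by infection, and a nuclear count of cells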. Scale: infection score: higher = more virus-infected cells; cell count: higher = more cells in the well. Rule for the call: 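Very low infection ranking in both replicate wells (chance probability at most 0.065), then a retest showing infection dropped 1.5-fold or more at p below 0.05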. Calls: active = confirmed: knock-down lowers infection; inactive = not picked or not confirmed.
The deposit covers about 22,000 reagents; this is a random part of those that have a named target and a result. Of all reagents, 116 (0.52%) got an active call. 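Calls depend on retest data that are not deposited; infection was ranked per plate without normalising between plates; the unit of the infection score is not given.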 Raw values are not corrected between plates. Reagents against one gene are numbered here. A plus sign joins genes that one reagent is predicted to hit. Further read-outs or replicates are left out here. The record does not give: the amount of reagent, the time to read-out.

After knock-down of CG9536 (GeneID 33904) #1, the screen gave infection score, replicate 1 = 1.85; cell count, replicate 1 = 6068; inactive.
With knock-down of CG9536 (GeneID 33904) #2, the record shows infection score, replicate 1 = 8.33; cell count, replicate 1 = 7034; inactive.
After knock-down of CG15800 (GeneID 37763), the screen gave infection score, replicate 1 = 2.4; cell count, replicate 1 = 6362; inactive.
After knock-down of CG31251 (GeneID 318645) the results were infection score, replicate 1 = 2.2; cell count, replicate 1 = 6229; inactive.
Rcd4 (GeneID 34158) showed infection score, replicate 1 = 3.27; cell count, replicate 1 = 5897; inactive.
With knock-down of Ak1 (GeneID 39396) #1, the record shows infection score, replicate 1 = 2.36; cell count, replicate 1 = 6356; inactive.
For Ak1 (GeneID 39396) #2 the deposit lists infection score, replicate 1 = 1.16; cell count, replicate 1 = 6575; inactive.
Gat (GeneID 43805) scored infection score, replicate 1 = 1.29; cell count, replicate 1 = 6739; inactive.
Scgbeta (GeneID 41525) gave infection score, replicate 1 = 27.5; cell count, replicate 1 = 5014; inactive.
Against Pi3K68D (GeneID 39329) #1, the values are infection score, replicate 1 = 16.8; cell count, replicate 1 = 5596; inactive.
After knock-down of Pi3K68D (GeneID 39329) #2, the screen gave infection score, replicate 1 = 12.3; cell count, replicate 1 = 2036; inactive.
For Mybbp1A (GeneID 31010), the entry reads infection score, replicate 1 = 6.43; cell count, replicate 1 = 6379; inactive.
After knock-down of TSG101 (GeneID 39881), the screen gave infection score, replicate 1 = 1.65; cell count, replicate 1 = 5998; inactive.

2 entries from above in another layout:
CG15800 (GeneID 37763)
- infection score, replicate 1: 2.4
- cell count, replicate 1: 6362
- Call: inactive

CG31251 (GeneID 318645)
- infection score, replicate 1: 2.2
- cell count, replicate 1: 6229
- Call: inactive

More records:
After knock-down of CG14304 (GeneID 42232), the record shows infection score, replicate 1 = 3.27; cell count, replicate 1 = 6247; inactive.
EndoU + CR31292 gave infection score, replicate 1 = 7.43; cell count, replicate 1 = 4938; inactive.
Ssdp (GeneID 42177) #1 gave infection score, replicate 1 = 0.48; cell count, replicate 1 = 6070; inactive.
Silencing of Ssdp (GeneID 42177) #2 resulted in: infection score, replicate 1 = 3.3; cell count, replicate 1 = 6099; inactive.
COX7C (GeneID 50246) showed infection score, replicate 1 = 5.45; cell count, replicate 1 = 5578; inactive.
Silencing of CG13131 (GeneID 34334) came out at: infection score, replicate 1 = 1.3; cell count, replicate 1 = 7135; inactive.
CG13557 (GeneID 37717) scored infection score, replicate 1 = 17.6; cell count, replicate 1 = 5055; inactive.
TTLL6A (GeneID 37253) #1 scored infection score, replicate 1 = 5.33; cell count, replicate 1 = 6344; inactive.
Against TTLL6A (GeneID 37253) #2, the values are infection score, replicate 1 = 6.56; cell count, replicate 1 = 6178; inactive.
